Results: publication PMC7106896, “Synthesis and biological evaluation of 2-(4-methylsulfonyl phenyl) indole derivatives: multi-target compounds with dual antimicrobial and anti-inflammatory activities” (BMC Chemistry, 2020)

Test: In vitro nitric oxide release assay (Griess reagent)

Structure (SMILES)	Amount of NO released (% mol/mol) ± standardization error (phosphate buffer pH 7.4, 1 h) [% mol/mol]	Amount of NO released (% mol/mol) ± standardization error (phosphate buffer pH 7.4, 2 h) [% mol/mol]	Amount of NO released (% mol/mol) ± standardization error (phosphate buffer pH 7.4, 3 h) [% mol/mol]	Amount of NO released (% mol/mol) ± standardization error (phosphate buffer pH 7.4, 4 h) [% mol/mol]	Amount of NO released (% mol/mol) ± standardization error (phosphate buffer pH 7.4, 5 h) [% mol/mol]
CS(=O)(=O)c1ccc(-c2[nH]c3ccccc3c2C=NO)cc1 [Compound 9a, 2-(4-(Methylsulfonyl)phenyl)-1H-indole-3-carbaldehyde oxime]	0.027 ± 0.002	0.065 ± 0.002	0.194 ± 0.007	0.165 ± 0.002	0.138 ± 0.004
CS(=O)(=O)c1ccc(-c2[nH]c3ccc(F)cc3c2C=NO)cc1 [Compound 9b, 5-Fluoro-2-(4-(methylsulfonyl)phenyl)-1H-indole-3-carbaldehyde oxime]	0.086 ± 0.001	0.147 ± 0.003	0.210 ± 0.002	0.198 ± 0.003	0.218 ± 0.005
Cc1ccc2[nH]c(-c3ccc(S(C)(=O)=O)cc3)c(C=NO)c2c1 [Compound 9c, 5-Methyl-2-(4-(methylsulfonyl)phenyl)-1H-indole-3-carbaldehyde oxime]	0.061 ± 0.001	0.130 ± 0.002	0.187 ± 0.001	0.198 ± 0.003	0.225 ± 0.002
